# Experimental data published in patent publication US20230285589A1, “LIPOSOME COMPLEX FOR CANCER TREATMENT, COMPRISING NOVEL CD47 BINDER AND POLYNUCLEOTIDE” (priority 2020, published 2023).
# Molecular target: recombinant CD47 protein (UniProt Q08722)
substance,measurement,value
SV1-(C)CRM197 (CRM197 protein added to the C-terminus of SV1) (from UniProt P00588 33-567),Kd,0.894 nM
